Compound potency records, mixed from different reports. Data source: NIAID ChemDB in PubChem.

All rows: whole-cell or culture tests; organism: HIV-1

ECn: concentration that inhibits the pathogen or its effect by n%. Blank or dashed fields: not listed here. Conditions beyond the fields shown may differ between rows.

structure,cells,read by,strain or isolate,read-out,mutations,value
O=S1(=O)c2ccccc2-n2cncc2-c2cccn21,MT-4,cytopathic effect / MTT,IIIB,EC50,-,>85 µM
Cc1cc(C#Cc2ccc(C(F)(F)F)cc2)cc(C)c1Oc1ccnc(Nc2ccc(C#N)cc2)n1,MT-4,MTT,IIIB,EC50,E138K,≥1.34 µM
Nc1ccc(S(N)(=O)=O)cc1SSc1cc(S(N)(=O)=O)ccc1N,CEM + CEM-SS,cytopathic effect / XTT,RF,EC50,-,27.1 µM
O=C1Nc2ccccc2Cn2ccnc21,MT-4,cytopathic effect / MTT,IIIB,EC50,-,>300 µM
CC(=O)Nc1cccc(C#Cc2cc(C)c(Oc3ccnc(Nc4ccc(C#N)cc4)n3)c(C)c2)c1,MT-4,MTT,IIIB,EC50,RES056,>0.844 µM
Cc1ccnc2c1NC(=O)c1cccnc1N2C1CC1,ACH2 + TZM-bl,luciferase,NL4-3,EC90,-,0.179 µM
NS(=O)(=O)c1ccc(SSc2ccc(S(N)(=O)=O)cc2[N+](=O)[O-])c([N+](=O)[O-])c1,CEM + CEM-SS,cytopathic effect / XTT,RF,EC50,-,34.6 µM
O=C1c2ccccc2C(=O)N1CCOC(=S)N(C(=O)c1ccccc1)c1ccccc1,MT-4,cytopathic effect / MTT,N119 nevirapine-resistant (RT Y181C),EC50,RT-Y181C,>100 µM
O=C(O)c1cc(O)cc(O)c1N=Nc1ccc(/C=C/c2ccc(N=Nc3c(O)cc(O)cc3C(=O)O)cc2S(=O)(=O)O)c(S(=O)(=O)O)c1,PBMC,p24,CLADE D,EC50,-,10.1 µg/mL
CNCCSS(=O)(=O)CCNC,CEM + CEM-SS,cytopathic effect / XTT,RF,EC50,-,247.3 µM
c1cc(CN2CCCNCCNCCCNCC2)ccc1CN1CCCNCCNCCCNCC1,-,-,NL4-3,EC50,DS-resistant,0.02 µM
N#CN=C1N(CC2CCCCC2)[C@H](Cc2ccccc2)[C@H](O)[C@@H](O)[C@@H](Cc2ccccc2)N1CC1CCCCC1,MT-2,hybridisation,RF,EC50,-,<1.1 µM
Nc1nc(N)c2ncn([C@H]3CO[C@@H](CO)O3)c2n1,H9,-,IIIB,EC50,-,0.075 µM
CC1(C)CN=C2c3ccccc3SC(=N)N2C1,MT-4,MTT,IIIB,EC50,-,2.3 µM
CCOCn1c(Cc2cc(C)cc(C)c2)c(CC)c(=O)[nH]c1=O,CEM,syncytia,IIIB TIBO R82913 STR-1 (RT L100I Y181C),EC50,RT-L100I Y181C,0.8 µM
Cc1ccc(-c2ccc3c(c2)C=C(C(=O)Nc2ccc(C[N+](C)(C)C4CCOCC4)cc2)CCC3)cc1,PBMC,antigen,IIIB X4,EC50,-,>1 µg/mL
O=c1[nH]cnc2c1ncn2[C@H]1CC[C@@H](CO)O1,CBMC,p24,HXB2-D (RT K65R M184V),EC50,RT-K65R M184V,18.5 ± 2.2 µM
CC(=O)NCCSS(=O)(=O)CCCCS(=O)(=O)SCCNC(C)=O,CEM + CEM-SS,cytopathic effect / XTT,RF,EC50,-,127.4 µM
Cc1cn([C@H]2C[C@H](F)[C@@H](CO)O2)c(=O)[nH]c1=O,PBMC,antigen,K AZT-resistant (RT V75I F77L F116Y Q151M),EC50,RT-V75I F77L F116Y Q151M,0.0049 µM
O=C1c2ccccc2C(=O)N1CCOC(=S)N(C(=O)c1cccnc1Cl)c1ccc(Cl)cc1,C8166,cytopathic effect / MTT,IIIB,EC50,-,<0.005 µM
COc1ccc(-c2ccc3c(c2)SC(=N)N2CCCN=C32)cc1OC,MT-4,MTT,IIIB,EC50,-,1.2 µM
COCCN1C(=O)c2cccn2S(=O)(=O)c2ccccc21,MT-4,cytopathic effect / MTT,IIIB,EC50,-,51 µM
CCCCN1C(=NC#N)N(CCCC)[C@H](Cc2ccccc2)[C@H](O)[C@@H](O)[C@H]1Cc1ccccc1,MT-2,hybridisation,RF,EC50,-,<2.6 µM
N=C1Sc2cc(-c3cccc(O)c3)ccc2C2=NCCCN12,MT-4,MTT,IIIB,EC50,-,0.96 µM
Cc1ccnc2c1NC(=O)c1cccnc1N2C1CC1,-,-,NL4-3,EC50,AMD3100-resistant,0.06 µM
NNC(=O)c1ccccc1SSc1ccccc1C(=O)NN,CEM + CEM-SS,cytopathic effect / XTT,RF,EC50,-,0.73 µM
O=C1c2ccccc2C(=O)N1CCOC(=S)N(C(=O)c1ccco1)c1ccc([N+](=O)[O-])cc1,MT-4,cytopathic effect / MTT,N119 nevirapine-resistant (RT Y181C),EC50,RT-Y181C,58 µM
Cc1cn([C@@H]2O[C@H](CO[Si](C)(C)C(C)(C)C)[C@@]3(OS(=O)(=O)C=C3N)[C@H]2O[Si](C)(C)C(C)(C)C)c(=O)[nH]c1=O,CEM,syncytia,IIIB TIBO R82913 STR-B22 (RT L100I Y188H),EC50,RT-L100I Y188H,4 µM
Cc1cn([C@H]2C[C@H](N=[N+]=[N-])[C@@H](CO)O2)c(=O)[nH]c1=O,-,-,WOPRO1838 Recombinant,EC50,-,0.004 µM
CCCN1C(=O)c2cccn2S(=O)(=O)c2ccc(Cl)cc21,MT-4,cytopathic effect / MTT,IIIB,EC50,-,>300 µM
Cc1nnc(C(C)C)n1C1C[C@H]2CC[C@@H](C1)N2CC[C@H](NC(=O)C1CCC(F)(F)CC1)c1ccccc1,ACH2 + TZM-bl,luciferase,SF162,EC90,-,0.0128 µM
Nc1cccc(CN2C(=O)N(Cc3cccc(N)c3)[C@H](Cc3ccccc3)[C@H](O)[C@@H](O)[C@H]2Cc2ccccc2)c1,MT-2,hybridisation,RF,EC50,-,<0.13 µM
Cc1cn([C@@H]2O[C@H](CO[Si](C)(C)C(C)(C)C)C3(OS(=O)(=O)C=C3N)[C@H]2O[Si](C)(C)C(C)(C)C)c(=O)n(C)c1=O,CEM,syncytia,IIIB TIBO R82913 STR-1 (RT L100I Y181C),EC50,RT-L100I Y181C,>50 µM
COC(=O)N[C@H](C(=O)N[C@@H](Cc1ccccc1)[C@@H](O)CN(Cc1ccc(-c2ccccn2)cc1)NC(=O)[C@@H](NC(=O)OC)C(C)(C)C)C(C)(C)C,MT-2,-,NL4-3,EC50,-,0.00075 µM
CC(C)Nc1cccnc1N1CCN(C(=O)c2cc3cc(NS(C)(=O)=O)ccc3[nH]2)CC1,PBMC,p24,JR-CSF,EC50,-,0.008 µM
N#CN=C1N(Cc2ccc3ccccc3c2)[C@H](Cc2ccccc2)[C@H](O)[C@@H](O)[C@@H](Cc2ccccc2)N1Cc1ccc2ccccc2c1,MT-2,hybridisation,RF,EC90,-,>79 µM
C=CCN1C(=O)c2cccn2S(=O)(=O)c2ccc(Cl)cc21,MT-4,cytopathic effect / MTT,IIIB,EC50,-,>32 µM
N=C1Sc2cc(-c3ccc4c(c3)OCCO4)ccc2C2=NCCCN12,MT-4,MTT,IIIB,EC50,-,2.6 µM
CCn1c(=O)c(C)cn([C@@H]2O[C@H](CO[Si](C)(C)C(C)(C)C)C3(OS(=O)(=O)C=C3N)[C@H]2O[Si](C)(C)C(C)(C)C)c1=O,CEM,syncytia,IIIB TIBO R82913 STR-2 (RT K103N),EC50,RT-K103N,0.32 µM
CCCN1C(=O)c2cccn2S(=O)(=O)c2ccccc21,MT-4,cytopathic effect / MTT,IIIB,EC50,-,26 µM
Nc1nc2c(ncn2[C@H]2CC[C@@H](CO)O2)c(=O)[nH]1,CEM,syncytia,IIIB TIBO R82150-resistant (RT L100I),EC50,RT-L100I,1 µM
O=C1N(Cc2cccc(CO)c2)[C@H](Cc2ccccc2)[C@H](O)[C@@H](O)[C@@H](Cc2ccccc2)N1Cc1cccc(CO)c1,MT-2,hybridisation,RF,EC50,-,<0.038 µM
CC(C)=CCN1C(=O)c2cccn2S(=O)(=O)c2ccc(Cl)cc21,MT-4,cytopathic effect / MTT,IIIB,EC50,-,>300 µM
Cc1cc(C#Cc2ccccc2)cc(C)c1Oc1ccnc(Nc2ccc(C#N)cc2)n1,MT-4,MTT,IIIB,EC50,F227L + V106A,>12.5 µM
CCN1C(=O)c2cccn2S(=O)(=O)c2ccc(Cl)cc21,MT-4,cytopathic effect / MTT,IIIB,EC50,-,13 µM
Nc1cc(S(N)(=O)=O)ccc1SSc1ccc(S(N)(=O)=O)cc1N,CEM + CEM-SS,cytopathic effect / XTT,RF,EC50,-,4.9 µM
O=C(O)C1Nc2ccccc2S(=O)(=O)n2cccc21,MT-4,cytopathic effect / MTT,IIIB,EC50,-,>300 µM
Cc1cc(C#Cc2cccc(N)c2)cc(C)c1Oc1ccnc(NC2CCN(Cc3ccc(C(N)=O)cc3)CC2)n1,MT-4,MTT,IIIB,EC50,RES056,>0.198 µM
O=C1c2ccccc2C(=O)N1CCOC(=S)N(C(=O)c1ccco1)c1ccc(Cl)cc1,MT-4,cytopathic effect / MTT,A17,EC50,RT-K103N Y181C,>100 µM

5 of the rows above, restated:

structure | cells | read by | strain or isolate | read-out | mutations | value
N#CN=C1N(Cc2ccc3ccccc3c2)[C@H](Cc2ccccc2)[C@H](O)[C@@H](O)[C@@H](Cc2ccccc2)N1Cc1ccc2ccccc2c1 | MT-2 | hybridisation | RF | EC90 | - | >79 µM
CCCN1C(=O)c2cccn2S(=O)(=O)c2ccccc21 | MT-4 | cytopathic effect / MTT | IIIB | EC50 | - | 26 µM
CCn1c(=O)c(C)cn([C@@H]2O[C@H](CO[Si](C)(C)C(C)(C)C)C3(OS(=O)(=O)C=C3N)[C@H]2O[Si](C)(C)C(C)(C)C)c1=O | CEM | syncytia | IIIB TIBO R82913 STR-2 (RT K103N) | EC50 | RT-K103N | 0.32 µM
CNCCSS(=O)(=O)CCNC | CEM + CEM-SS | cytopathic effect / XTT | RF | EC50 | - | 247.3 µM
CCCCN1C(=NC#N)N(CCCC)[C@H](Cc2ccccc2)[C@H](O)[C@@H](O)[C@H]1Cc1ccccc1 | MT-2 | hybridisation | RF | EC50 | - | <2.6 µM